Consider five molecules from patent US9938510B2, “Photobacterium sp. alpha-2-6-sialyltransferase variants” (The Regents of the University of California, priority 2014, dated 2018).

The data set in a line: Expression and Ni2+-NTA purification of soluble recombinant protein; SDS-PAGE of lysates. Set-up: species or system Escherichia coli. The method, then:
The plasmids containing mutant genes were transformed into Escherichia coli BL21 (DE3). The Escherichia coli cells were cultured in LB-rich media (10 g L^−1 tryptone, 5 g L^−1 yeast extract, and 10 g L^−1 NaCl) supplemented with ampicillin (100 μg mL^−1). Overexpression of the mutants was achieved by adding 0.3 mM of isopropyl-1-thio-β-D-galactopyranoside (IPTG) to the Escherichia coli culture when its OD600 nm reached 0.8. The induced culture was incubated at 20° C. for 20 h with vigorous shaking at 250 rpm in a C25KC incubator shaker (New Brunswick Scientific, Edison, N.J.). His6-tagged mutant proteins were purified from the cell lysate. To obtain cell lysate, the cell pellet harvested by centrifugation at 4000 rpm for 2 h was resuspended in 20 mL (for cells obtained from one liter culture) of lysis buffer (pH 8.0, 100 mM Tris-HCl containing 0.1% Triton X-100). Lysozyme (50 μg mL^−1) and DNaseI (3 μg mL^−1) were added to the resuspended cells followed by shaking at 37° C. for 60 min. The lysate was obtained as the supernatant after centrifugation at 11,000 rpm for 20 min. Purification of His6-tagged proteins from the lysate was achieved using 10 mL column packed with Ni^2+-NTA agarose. The column was pre-equilibrated with 8 column volumes of binding buffer (5 mM imidazole, 0.5 M NaCl, 50 mM Tris-HCl pH 7.5). After loading the sample, the column was washed with 8 column volumes of the binding and 8 column volumes of washing buffer (20 mM imidazole, 0.5 M NaCl, 50 mM Tris-HCl pH 7.5). Protein was eluted using 8 column volumes of the elute buffer (200 mM imidazole, 0.5 M NaCl, 50 mM Tris-HCl pH 7.5). The fractions containing the purified enzyme were collected and stored at 4° C. Protein concentrations were quantified by bicinchoninic acid (BCA) protein assay kit according to manufacturer's instruction using bovine serum albumin (BSA) as the protein standard. The wild-type enzyme and A366G mutant were expressed, purified, and quantified in duplicates or triplets for at least three times.
SDS-PAGE was performed in a 12% Tris-glycine gel using Bio-Rad Mini-protein III cell gel electrophoresis unit (Bio-Rad, Hercules, Calif.) at DC=150V. Bio-Rad Precision Plus Protein Standards (10-250 kD) were used as molecular weight standards. Gels were stained with Coomassie Blue. Cell lysates from the wild-type enzyme and the mutants were prepared exactly the same and the same volume (˜30 mL) of the lysate was obtained for each construct. The same volume of the lysate was used to prepare samples for SDS-PAGE and the same volume (10 μL) was loaded to the gel.

Positions count from the first letter of the chain named. Names and notes keep the numbering of the source. Some compounds share one wording; it may come from a single statement.

B1: A366G: Photobacterium sp. JH-ISH-224 α2-6-sialyltransferase residues 15-501, A366G point mutation, C-terminal His6; SEQ ID NO: 2 (protein)
chain: CNNSEENTQSIIKNDINKTIIDEEYVNLEPINQSNISFTKHSWVQTCGTQQLLTEQNKESISLSVVAPRLDDDEKYCFDFNGVSNKGEKYITKVTLNVVAPSLEVYVDHASLPTLQQLMDIIKSEEENPTAQRYIAWGRIVPTDEQMKELNITSFALINNHTPADLVQEIVKQAQTKHRLNVKLSSNTAHSFDNLVPILKELNSFNNVTVTNIDLYDDGSAEYVNLYNWRDTLNKTDNLKIGKDYLEDVINGINEDTSNTGTSSVYNWQKLYPANYHFLRKDYLTLEPSLHELRDYIGDSLKQMQWDGFKKFNSKQQELFLSIVNFDKQKLQNEYNSSNLPNFVFTGTTVWGGNHEREYYAKQQINVINNAINESSPHYLGNSYDLFFKGHPGGGIINTLIMQNYPSMVDIPSKISFEVLMMTDMLPDAVAGIASSLYFTIPAEKIKFIVFTSTETITDRETALRSPLVQVMIKLGIVKEENVLFWA
modifications: C-terminal His6; Synthetic Psp26ST(15-501) A366G
As to B1, the “expression level of soluble recombinant protein in cell lysates compared to wild-type (SDS-PAGE, FIG. 4)” value was “significantly improved expression level” and the “increase of expression level over wild-type” value was “over a six-fold increase”.

B2: W365G: Psp26ST(15-501)-His6 with W365G point mutation; SEQ ID NO: 4 (protein)
chain: B1 chain with W351G, G352A
modifications: C-terminal His6; Synthetic Psp26ST(15-501) W365G
Regarding B2, the “expression level of soluble recombinant protein in cell lysates compared to wild-type (SDS-PAGE, FIG. 4)” value is “significantly improved expression level”.

B3: W365S: Psp26ST(15-501)-His6 with W365S point mutation; SEQ ID NO: 8 (protein)
chain: B1 chain with W351S, G352A
modifications: C-terminal His6; Synthetic Psp26ST(15-501) W365S
B3: the “expression level of soluble recombinant protein in cell lysates compared to wild-type (SDS-PAGE, FIG. 4)” value was “significantly improved expression level”.

B4: W365A: Psp26ST(15-501)-His6 with W365A point mutation; SEQ ID NO: 6 (protein)
chain: B1 chain with W351A, G352A
modifications: C-terminal His6; Synthetic Psp26ST(15-501) W365A
B4: the “expression level of soluble recombinant protein in cell lysates compared to wild-type (SDS-PAGE, FIG. 4)” value was “significantly improved expression level”.

B5: R153G: Psp26ST(15-501)-His6 with R153G point mutation; SEQ ID NO: 10 (protein)
chain: B1 chain with R139G, G352A
modifications: C-terminal His6; Synthetic Psp26ST(15-501) R153G
B5: the “expression level of soluble recombinant protein in cell lysates compared to wild-type (SDS-PAGE, FIG. 4)” value is on record as “significantly improved expression level”.
